According to article PMC12608155, “Discovery of Potential Antileishmanial Compounds Through Phenotypic Screening of an Alkaloid Library” (Molecules, 2025):

Key:
RAW 264.7 = test: Cytotoxicity in RAW 264.7 cells (alamarBlue, 72 h); conditions: calculated between RAW 264.7 cells and intramacrophagic amastigotes
Description: (§1) To this end, we calculated SIs from 16 preselected results from the ex vivo system. With this aim, dose–response curves were performed in duplicate across at least three independent experiments using RAW 264.7 mouse macrophages (as a model of host cells harboring amastigotes) and HepG2 (as a model for assessing systemic toxicity).
(§2) To evaluate the safety of the selected compounds, two cell lines were employed: RAW 264.7 (a mouse macrophage-derived cell line) and HepG2 (a human hepatoma cell line). Furthermore, to determine the intestinal tolerance relevant to potential oral administration, mouse intestinal organoids were prepared.
(§3) RAW 264.7 and HepG2 were routinely cultured under standard conditions. RAW 264.7 cells were maintained in RPMI medium (Gibco) supplemented with, 25 mM HEPES, 24 mM NaHCO3, 2 mM L-glutamine, mixture of antibiotics and 10% FBS. HepG2 cells were cultured in DMEM/F-12 (Gibco) and supplemented 10% of FBS. For cytotoxicity assays, 10,000 cells per well were seeded into 96-well plates and incubated overnight at 37 °C with 5% of CO2. Subsequently, 2-fold serial dilutions of the compounds were added and incubated for 72 h. Cell viability using the alamarBlue™ assay according to the manufacturer’s instructions, and fluorescence was measured with a Varioskan™ LUX microplate reader (ThermoFisher Scientific, Waltham, MA, USA). Non-linear regression analyses were performed using SigmaPlot^TM software (version 10.0) to calculate CC50. Data were obtained from at least three independent experiments performed in duplicate.

HepG2 = test: Cytotoxicity in HepG2 cells (alamarBlue, 72 h); conditions: calculated between HepG2 cells and intramacrophagic amastigotes
Description: as §1, §2, §3

Row | Compound | SI1 (RAW 264.7) | SI2 (HepG2)
1 | COc1cc2c(cc1OC)-c1c(C)c3ccc(OC)c(OC)c3c[n+]1CC2 [Dehydrocorydaline] | >3.7 | >3.7
2 | COc1ccc2cc3[n+](cc2c1OC)CCc1cc2c(cc1-3)OCO2 [Berberine] | >11.4 | >11.4
3 | CN1C(=O)/C(=C2/C(=O)Nc3ccccc32)c2ccccc21 [Meisoindigo] | 1.6 | 2.2
4 | COc1cc2c[n+](C)c3c4cc5c(cc4ccc3c2cc1OC)OCO5 [Nitidine] | 3.1 | 0.7
5 | COc1ccc2c(c1OC)CN(C)c1c-2ccc2cc3c(cc12)OCO3 [Dihydrochelerythrine] | >4.8 | >4.8
